Like-named read-outs stand apart in the source and are kept apart here.
How the values were obtained:
Format in all cases: biochemical
[1] = molecular target: T1, HIV-1 RT mutant V75T (Human immunodeficiency virus type 1 group M subtype B, UniProt P04585, V662T)
T1 construct: The final RT products, in a heterodimeric form (p66/p51); made in house

[2] = molecular target: T2, HIV-1 RT mutant 41/67/70/215 (Human immunodeficiency virus type 1 group M subtype B, UniProt P04585, D654N/K657R/M628L/T802Y); conditions: 41/67/70/215 RT
T2 construct: The final RT products, in a heterodimeric form (p66/p51); made in house; host or cells: E. coli XL1-Blue (vector pKK233-2)

[3] = molecular target: T3, HIV-1 RT mutant Q151M (Human immunodeficiency virus type 1 group M subtype B, UniProt P04585, Q738M)
T3 construct: The final RT products, in a heterodimeric form (p66/p51); made in house

[4] = molecular target: T4, HIV-1 RT mutant 41/67/70/184/210/211/214/215 (Human immunodeficiency virus type 1 group M subtype B, UniProt P04585, D654N/K657R/L797W/L801F/M628L/M771V/R798K/T802Y); conditions: 41/67/70/184/210/211/214/215 RT
T4 construct: The final RT products, in a heterodimeric form (p66/p51); made in house; host or cells: E. coli XL1-Blue (vector pKK233-2)

[5] = molecular target: T5, HIV-1 RT mutant 41/67/70/184/215 (Human immunodeficiency virus type 1 group M subtype B, UniProt P04585, D654N/K657R/M628L/M771V/T802Y); conditions: 41/67/70/184/215 RT
T5 construct: The final RT products, in a heterodimeric form (p66/p51); made in house; host or cells: E. coli XL1-Blue (vector pKK233-2)

[6] = molecular target: T6, HIV-1 RT mutant 69S-SG (Human immunodeficiency virus type 1 group M subtype B, UniProt P04585, INS655SS/T656G/T656S); conditions: 69S-SG RT
T6 construct: The final RT products, in a heterodimeric form (p66/p51); made in house; host or cells: E. coli XL1-Blue (vector pKK233-2)

[7] = molecular target: T7, HIV-1 RT mutant 69S-AG (Human immunodeficiency virus type 1 group M subtype B, UniProt P04585, INS655SA/T656G/T656S); conditions: 69S-AG RT
T7 construct: The final RT products, in a heterodimeric form (p66/p51); made in house; host or cells: E. coli XL1-Blue (vector pKK233-2)

[8] = no extra additions (without ATP)

Substance: d4T-TP
- Fold resistance with ATP (RT assay) ([1]; ATP 3.2 mM): 4.0 +/− 0.6 fold
- Ki ([1]; ATP 3.2 mM): 6.6 nM
- Ki/Km ([1]; ATP 3.2 mM): 0.04
- Fold resistance (RT assay) ([1]; without ATP): 4.1 +/− 0.6 fold
- Ki ([1]; without ATP): 2.6 nM
- Ki/Km ([1]; without ATP): 0.033
- Fold resistance in RT-assay relative to HXB2 ([2]; ATP 3.2 mM): 2.2 fold
- Ki ([2]; ATP 3.2 mM): 2.8 nM
- Ki/Km ([2]; ATP 3.2 mM): 0.022
- Fold resistance in RT-assay relative to HXB2 [2, 8]: 0.5 fold
- Ki/Km [2, 8]: 0.004
- Fold resistance with ATP (RT assay) ([3]; ATP 3.2 mM): 4.0 +/− 0.1 fold
- Ki ([3]; ATP 3.2 mM): 7.1 nM
- Ki/Km ([3]; ATP 3.2 mM): 0.04
- Fold resistance (RT assay) ([3]; without ATP): 3.3 +/− 0.9 fold
- Ki ([3]; without ATP): 3 nM
- Ki/Km ([3]; without ATP): 0.026
- Fold resistance in RT-assay relative to HXB2 ([4]; ATP 3.2 mM): 2.8 fold
- Ki ([4]; ATP 3.2 mM): 6.9 nM
- Ki/Km ([4]; ATP 3.2 mM): 0.028
- Fold resistance in RT-assay relative to HXB2 ([4]; without ATP): 0.9 fold
- Ki ([4]; without ATP): 1.5 nM
- Ki/Km ([4]; without ATP): 0.007
- Fold resistance in RT-assay relative to HXB2 ([5]; ATP 3.2 mM): 3.4 fold
- Ki ([5]; ATP 3.2 mM): 5.2 nM
- Ki/Km ([5]; ATP 3.2 mM): 0.034
- Fold resistance in RT-assay relative to HXB2 ([5]; without ATP): 1.0 fold
- Ki ([5]; without ATP): 0.6 nM
- Ki/Km ([5]; without ATP): 0.008
- Fold resistance in RT-assay relative to HXB2 ([6]; ATP 3.2 mM): 3.0 +/− 0.6 fold
- Ki ([6]; ATP 3.2 mM): 6.8 nM
- Ki/Km ([6]; ATP 3.2 mM): 0.03
- Fold resistance in RT-assay relative to HXB2 ([6]; without ATP): 1.8 +/− 0.2 fold
- Ki ([6]; without ATP): 3.7 nM
- Ki/Km ([6]; without ATP): 0.015
- Fold resistance in RT-assay relative to HXB2 ([7]; ATP 3.2 mM): 4.9 +/− 0.2 fold
- Ki ([7]; ATP 3.2 mM): 6.2 nM
- Ki/Km ([7]; ATP 3.2 mM): 0.049
- Fold resistance in RT-assay relative to HXB2 ([7]; without ATP): 2.0 +/− 0.4 fold
- Ki ([7]; without ATP): 1.9 nM
- Ki/Km ([7]; without ATP): 0.016
